Measured values from several laboratories, pooled; numbers as filed in NIAID ChemDB.

Shared fields: host cell toxicity; measure: CC50

Blank or dashed fields: not listed here. Neighbouring rows are from separate reports. CCn: concentration that lowers growth or viability of the cells by n%.

SMILES	method	cell line	value
OC[C@@H]1NC[C@@H](O)[C@H]1O		T CELLS	>130 µg/mL
CSc1nsc(-c2ccc(OCc3ccccc3)cc2)c1C#N		L929	>50 µM
Nc1nc(-c2ccc(NC(=O)CN(Cc3ccccc3)C(=O)Cc3cccnc3)cc2)cs1		HS68	>50 µM
COC1=CC(=O)c2c(O)c(C)c(CC(C)=O)c(O)c2C1=O	MTT	MDA-MB-231	4.1 µg/mL
CCCCNc1cccc2c(-c3ccnc(NC4CCCC4)n3)c(-c3ccc(F)cc3)nn12		VERO 76	>40 µM
Cc1ccc(/C=c2\c(=O)sc3nc4c(c(=S)n23)C2=C(CCC/C2=C\c2ccncc2)C(c2ccncc2)S4)cc1	MTT	CNE-2	37.1 µM
CCOC(=O)COc1ccccc1CN(C(=O)c1ccc(-c2ccc3c(c2)OCO3)cc1)C(C)C		BJ	>20 µM
Nc1c(C(=O)c2ccccc2)[nH]c2c1C1=C(CCC/C1=C\c1ccncc1)C(c1ccncc1)S2	MTT	CNE-2	>50 µM
CN1C[C@@H](O)[C@@H](O)[C@H](O)[C@H]1CO		T CELLS	>300 µg/mL
COc1cc(O)c2c(c1O)C(=O)c1cc(C)ncc1C2=O	MTT	Panc-1	120.5 µg/mL
COc1ccc(Nc2cccc3c(-c4ccnc(NC5CCCC5)n4)c(-c4ccc(F)cc4)nn23)cc1		VERO 76	>40 µM
CC(C)N(Cc1cccc(OCCCCCC(=O)OC(=O)O)c1)C(=O)c1ccc(-c2cccc(F)c2)cc1		HepG2	>20 µM
Cc1cc(CCCCCCCOC2c3ccccc3-c3ccccc32)on1	crystal violet	WIS HELA	>50 µg/mL
Cc1ccc(NC(=S)Nc2ccc(Sc3cc(=O)n(C)c4ccc(C)cc34)cc2)cc1		Huh-Luc-Neo	>100 µM
Cc1cc(CCCCCCCOc2nc3ccccc3o2)on1	crystal violet	WIS HELA	50 µg/mL
CSc1nsc(-c2ccc(OS(=O)(=O)c3ccc(C)cc3)cc2)c1C#N		HELA-OHIO	25 µM
COc1cc(O)c2c(c1O)C1O[C@]3(C)C[C@H]1[C@@H](CO3)C2=O	MTT	Panc-1	52.7 µg/mL
C[C@H]1[C@@H](O)[C@@H](O)[C@H](O)CN1C		T CELLS	>100 µg/mL
CCCCNc1nccc(-c2c(-c3ccc(F)cc3)nn3c(N4CCOCC4)cccc23)n1		VERO 76	>40 µM
CC(C)N(Cc1cccc(OCCCCCC(=O)OC(=O)O)c1)C(=O)c1ccc(-c2cccc(C#N)c2)cc1		RAJI	>20 µM
COc1ccc(F)cc1CNCCCNc1ccnc2cc(-c3ccc(C(F)(F)F)cc3)ccc12	fluorescence	HepG2	5.19 µM
CCOC(=O)CCCCCOc1cccc(CN(C(=O)c2ccc(-c3cccc(-c4nnc(C)o4)c3)cc2)C(C)C)c1		RAJI	>20 µM
Nc1nc(-c2ccc(NC(=O)CNCCCc3ccccc3)cc2)cs1		HS68	>14 µM
Fc1ccc(-c2nn3c(NN4CCCC4)cccc3c2-c2ccnc(NC3CCCC3)n2)cc1		VERO 76	>40 µM
COc1ccc(F)cc1CNCCCNc1ccnc2cc(Oc3ccccc3)ccc12	fluorescence	HepG2	1.5 µM
COc1ccc(-c2snc(SC)c2C#N)cc1		HELA-OHIO	12 µM
CCCCNc1cccc2c(-c3ccnc(NCCCO)n3)c(-c3ccc(F)cc3)nn12		VERO 76	>19 µM
Cc1ccc(/C=C2/Cn3c(nc4c(c3=S)C3=C(CCC/C3=C\c3ccncc3)C(c3ccncc3)S4)SC2=O)cc1	MTT	CNE-2	20.2 µM
Cc1csc(CCCCCCCOc2cc(C)c3ccccc3n2)n1	crystal violet	WIS HELA	25 µg/mL
Cn1c(=O)cc(Sc2ccc(C(C)(C)C)cc2)c2ccccc21		Huh-Luc-Neo	>100 µM
CCOC(=O)CCCCCOc1cccc(CNC(C)C)c1		RAJI	>20 µM
CC(C)(CF)C(=O)Nc1cccc(NS(=O)(=O)c2ccc(-c3noc(-c4ccccc4)n3)cc2)c1		HELF	<8 µM
N#Cc1c(N)c2c3c([nH]c2[nH]c1=O)SC(c1ccncc1)C1=C3/C(=C/c2ccncc2)CCC1	MTT	MGC-803	15.8 µM
Cn1c(=O)cc(Sc2ccc(F)cc2)c2cc(F)ccc21		Huh-Luc-Neo	>100 µM
CCO/C(C)=N\C1=C(C#N)C2=C(CCC/C2=C\c2ccncc2)C(c2ccncc2)S1	MTT	KB	44.6 µM
Cn1c(=O)cc(Sc2ccc(Cl)cc2)c2ccccc21		Huh-Luc-Neo	>100 µM
NC(=O)c1[nH]c2c(c1N)C1=C(CCC/C1=C\c1ccncc1)C(c1ccncc1)S2	MTT	CNE-2	>50 µM
Nc1nc(-c2ccc(NC(=O)CCN(Cc3ccccc3)C(=O)C3CCCCC3)cc2)cs1		HS68	<13 µM
C=CCCC1=NCC(O[Si](C)(C)C(C)(C)C)c2cc(OC)c(OC)cc21		HepG2	<7.5 µM
Cc1cc(OCCCc2ccns2)c2ccccc2n1	crystal violet	WIS HELA	50 µg/mL
COc1cccc(CNCCCNc2ccnc3cc(Cc4cc(C)cc(C)c4)ccc23)c1O	fluorescence	HepG2	2.68 µM
O=C1Sc2nc3c(c(=S)n2C/C1=C/c1ccccc1)C1=C(CCC/C1=C\c1ccncc1)C(c1ccncc1)S3	MTT	CNE-2	24.5 µM
Nc1nc(-c2ccc(NC(=O)CCN(Cc3ccccc3)C(=O)OCc3ccccc3)cc2)cs1		HS68	<8 µM
CCCN(Cc1cccc(OCCCCCC(=O)OCC)c1)C(=O)c1ccc(-c2ccc3c(c2)OCO3)cc1		BJ	>20 µM
Cn1c(=O)cc(Sc2ccc(NC(=O)[C@@H](NC(=O)OC(C)(C)C)C3CCCCC3)cc2)c2ccccc21		Huh-Luc-Neo	>100 µM
CCOC(=O)c1[nH]c2c(c1N)C1=C(CCC/C1=C\c1ccncc1)C(c1ccncc1)S2	MTT	CNE-2	>50 µM
Fc1ccc(Nc2nccc(-c3c(-c4ccc(F)cc4)nn4c(Nc5ccc(F)cc5)cccc34)n2)cc1		VERO 76	>40 µM
Fc1ccc(Cc2ccc3c(NCCCNCc4ccco4)ccnc3c2)c(Cl)c1	fluorescence	HepG2	5.73 µM
Cc1cc(C)n(CCCCCCOc2ccc3c(c2)oc2ccccc23)n1	crystal violet	WIS HELA	10 µg/mL
Nc1nc(-c2ccc(C(=O)N(Cc3ccccc3)Cc3ccccc3)cc2)cs1		HS68	<32 µM
Cc1cc(CCCCCCCON(Cc2ccccc2)Cc2ccccc2)on1	crystal violet	WIS HELA	100 µg/mL
COc1cccc(CNCCCNc2ccnc3cc(-c4ccc(C(F)(F)F)cc4)ccc23)c1O	fluorescence	HepG2	2.21 µM

For reference, 8 entries again:

SMILES	method	cell line	value
Cc1ccc(NC(=S)Nc2ccc(Sc3cc(=O)n(C)c4ccc(C)cc34)cc2)cc1		Huh-Luc-Neo	>100 µM
NC(=O)c1[nH]c2c(c1N)C1=C(CCC/C1=C\c1ccncc1)C(c1ccncc1)S2	MTT	CNE-2	>50 µM
Nc1nc(-c2ccc(NC(=O)CNCCCc3ccccc3)cc2)cs1		HS68	>14 µM
CCCCNc1nccc(-c2c(-c3ccc(F)cc3)nn3c(N4CCOCC4)cccc23)n1		VERO 76	>40 µM
Cc1ccc(/C=c2\c(=O)sc3nc4c(c(=S)n23)C2=C(CCC/C2=C\c2ccncc2)C(c2ccncc2)S4)cc1	MTT	CNE-2	37.1 µM
CCOC(=O)c1[nH]c2c(c1N)C1=C(CCC/C1=C\c1ccncc1)C(c1ccncc1)S2	MTT	CNE-2	>50 µM
O=C1Sc2nc3c(c(=S)n2C/C1=C/c1ccccc1)C1=C(CCC/C1=C\c1ccncc1)C(c1ccncc1)S3	MTT	CNE-2	24.5 µM
COc1ccc(F)cc1CNCCCNc1ccnc2cc(-c3ccc(C(F)(F)F)cc3)ccc12	fluorescence	HepG2	5.19 µM